Anti-infective test results gathered from many reports (values: NIAID ChemDB through PubChem).

All rows: growth or infection tests; organism: HIV-1; method: cytopathic effect / trypan blue; endpoint: inhibition

Lines come from different laboratories, so protocols vary. Percent inhibition refers to the dose given; in toxicity tests it is the harm to the cells.

| compound | dose | cells | strain | result |
|---|---|---|---|---|
| Nc1nc2c(ncn2[C@@H]2C[C@H](CO)[C@H]2CO)c(=O)[nH]1 | 10 µM | ATH8 | IIIB | 90% |
| Cc1cn([C@H]2C[C@H](F)[C@@H](CO)O2)c(=O)[nH]c1=O | 0.02 µM | MT-4 | IIIB | 90% |
| Nc1ccn([C@H]2CC[C@@H](CO)O2)c(=O)n1 | 0.2 µM | ATH8 | IIIB | 100% |
| Nc1nc(Cl)nc2c1ncn2[C@H]1CC[C@@H](CO)O1 | 2 µM | MT-2 | IIIB | 2% |
| Nc1ncnc2c1ncn2[C@@H]1O[C@H](CO)[C@H]1CO | 100 µM | ATH8 | IIIB | 77% |
| Cc1cn([C@H]2CC[C@@H](CO)O2)c(=O)[nH]c1=O | 200 µM | ATH8 | IIIB Laboratory strain | 77% |
| Nc1nc(Br)c2ncn([C@H]3CC[C@@H](CO)O3)c2n1 | 20 µM | MT-2 | IIIB | 100% |
| Nc1nc2c(ncn2[C@H]2CC[C@@H](CO)O2)c(=O)[nH]1 | 100 µM | ATH8 | IIIB | 99% |
| OC[C@@H]1CC[C@H](n2cnc3c(I)ncnc32)O1 | 20 µM | ATH8 | IIIB | 41% |
| Nc1ccn([C@H]2CC[C@@H](CO)O2)c(=O)n1 | 0.2 µM | ATH8 | IIIB | 58% |
| Cc1cn(CCOCP(=O)(O)O)c(=O)[nH]c1=O | 125 µM | MT-4 | IIIB | 30% |
| Nc1ncnc2c1ncn2CC#CCCl | 100 µM | ATH8 | IIIB | 0% |
| Nc1nc2c(nc(Br)n2[C@@H]2C[C@H](CO)[C@H]2CO)c(=O)[nH]1 | 100 µM | ATH8 | IIIB | 12% |
| O=c1[nH]cnc2c1ncn2C=C=CCO | 1000 µM | ATH8 | IIIB | 2% |
| Cc1cn([C@@H]2C[C@H](CO)[C@H]2CO)c(=O)[nH]c1=O | 500 µM | ATH8 | IIIB | 0% |

The last 2 rows once more:

{"compound": "O=c1[nH]cnc2c1ncn2C=C=CCO", "dose": "1000 µM", "cells": "ATH8", "strain": "IIIB", "result": "2%"}
{"compound": "Cc1cn([C@@H]2C[C@H](CO)[C@H]2CO)c(=O)[nH]c1=O", "dose": "500 µM", "cells": "ATH8", "strain": "IIIB", "result": "0%"}